B1: ephrinB3-Fc chimaera (human ephrin-B3 residues 28-224, human IgG1 Fc) (Fc fusion)
chain: LSLEPVYWNSANKRFQAEGGYVLYPQIGDRLDLLCPRARPPGPHSSPNYEFYKLYLVGGAQGRRCEAPPAPNLLLTCDRPDLDLRFTIKFQEYSPNLWGHEFRSHHDYYIIATSDGTREGLESLQGGVCLTRGMKVLLRVGQSPRGGAVPRKPVSEMPMERDRGAAHSLEPGKENLPGDPTSNATSRGAEGPLPPPS
modifications: biotin (Luminex assay)
notes: also called EB3-Fc; EB3; source: Expi293F, transient transfection, purified
B2: 1E5 (chimeric macaque-human IgG1 antibody) (antibody, V domains shown)
VH: QVQLQESGPGVVKPSETLSLTCAVSGGSISDTYRWSWIRQPPGKGLEWIGYIYGSATSTYYNPSLSSRVTISKDMSKNQFSLNLNSVTAADTAVYYCARDYQYYYSGSYPTPHNWFDVWGPGVLVTVSS
VL: DIQMTQSPSSLSASVGDRVTITCRASQGIIDYLSWYQQKPGKAPKLLISTASNLESGVPSRFSGSGSGTEFTLTISSLQPEDFATYSCLQGYTTPYTFGQGTKVEIK
notes: also called bnAb 1E5; mAb 1E5; source: Expi293F, transient transfection, purified

Columns and labels:
[1] = biological target: recombinant HeV G ectodomain (residues 71-604) (Hendra virus (HeV), UniProt O89343 71-604); assay: Luminex bead assay (competitive)
[2] = biological target: T1, recombinant NiVMY G ectodomain (residues 71-602, Strep-tag) (Nipah virus Malaysia (NiVMY), UniProt Q9IH62); assay: cell-based or functional assay
[3] = biological target: T1, recombinant NiVMY G ectodomain …; assay: BLI
[4] = biological target: recombinant HeV G ectodomain (residues 71-604) (Hendra virus (HeV), UniProt O89343); assay: BLI

Row | Binder | binding result [1] | Live virus neutralization IC50 (plaque reduction), NiVMY [2] | Kd [3] | Kd [4]
1 | B1 | binds |  |  | 
2 | B2 |  | 0.03 µg/mL | < 10 pM | < 10 pM

Reference: article PMC11109247 (Nature Communications, 2024)
